A mixed list of measured activities; the numbers were collected in NIAID ChemDB.

Common to all: growth or infection tests; organism: Mycobacterium tuberculosis

Inhibition is in % at the dose shown (toxicity tests: loss of growth or viability). Conditions beyond the fields shown may differ between rows. Blank or dashed fields: not listed here. ECn: concentration that inhibits the pathogen or its effect by n%. MIC bound comes from a single tested concentration. A number after MIC or MFC names an inhibition level or a share of isolates.

smiles,method,read-out,strain,tested at,value
COc1cc([N+](=O)[O-])c(S(=O)(=O)O)cc1-n1nc(C(=O)Nc2ccccc2)n[n+]1-c1cc(S(=O)(=O)O)c([N+](=O)[O-])cc1OC,BACTEC,MIC,H37Rv,-,≥12.5 µg/mL
COc1ccc(CNCCNCCCCc2ccccc2)c(OC)c1,-,MIC,-,-,50 µM
O=C1NC(=O)/C(=C/c2ccccc2)N1,-,MIC,H37Rv,-,>100 µg/mL
CO[C@H]1/C=C/O[C@@]2(C)Oc3c(C)c(O)c4c(O)c(c5c(c4c3C2=O)NC2(CCN(CC(C)C)CC2)N=5)=NC(=O)/C(C)=C\C=C\[C@H](C)[C@H](O)[C@@H](C)[C@@H](O)[C@@H](C)[C@H](OC(C)=O)[C@@H]1C,-,MIC,31 (rifampin-resistant),-,0.2 µg/mL
c1ccc2c(c1)ccc1c3ccccc3[nH]c21,-,MIC,H37Rv,-,100 µg/mL
CC(CNCCc1ccccc1F)NC1CCCCCCC1,-,MIC,-,-,50 µM
CC(=O)c1c(O)c(C)c(O)c2c1OC1=Cc3c(c(C)nn3C)C(=O)C12C,BACTEC,inhibition,H37Rv,12.5 µg/mL,-20%
O=c1cc(-c2ccc(Oc3c(O)cc4oc(-c5ccc(O)cc5)cc(=O)c4c3O)cc2)oc2cc(O)cc(O)c12,-,EC50,H37Rv,-,>12.5 µg/mL
Cl.O=C(O)CSc1ccnc2cc(Cl)ccc12,-,MIC,H37Rv,-,>100 µg/mL
COc1c2c(c(OC)c3c1c(=O)c1ccccc1n3C)OCO2,BACTEC,inhibition,H37Rv,128 µg/mL,74%
CC1CN(c2cc3c(cc2F)c(=O)c(C(=O)O)cn3-c2ccc(F)cc2F)CCN1,-,MBC90,Drug-resistant,-,4 µg/mL
CC1(C)[C@H]2CC[C@@H](CNCCNCCC(c3ccccc3)c3ccccc3)[C@@H]1C2,-,MIC,-,-,6.25 µM
CO[C@H]1/C=C/O[C@@]2(C)Oc3c(C)c(O)c4c(O)c(c(/C=N/N5CCN(C/C=C/c6ccccc6)CC5)c(O)c4c3C2=O)NC(=O)/C(C)=C\C=C\[C@H](C)[C@H](O)[C@@H](C)[C@@H](O)[C@@H](C)[C@H](OC(C)=O)[C@@H]1C,-,MIC,2847 (rifampin-sensitive),-,0.1 µg/mL
CC(=O)OC/C=C/COC(C)=O,-,MIC,H37Rv,-,50 µg/mL
C[C@H]1C[C@H](N)CN1c1cc2c(cc1F)c(=O)c(C(=O)O)cn2-c1ccc(F)cc1F,-,MBC90,MDR,-,>8 µg/mL
O=c1ccc2nc3ccc(O)cc3oc-2c1,BACTEC,MIC bound,H37Rv,-,>128 µg/mL
CC1(C)CC2CC(C)(CN2CCNC[C@@H]2CC[C@H]3C[C@@H]2C3(C)C)C1,-,MIC,-,-,6.25 µM
c1ccc(CCCNCCNCC23CC4CC(CC(C4)C2)C3)cc1,-,MIC,-,-,25 µM
NCC[C@H](O)C(=O)N[C@@H]1C[C@H](N)[C@@H](O[C@H]2O[C@H](CN)[C@@H](O)[C@H](O)[C@H]2O)[C@H](O)[C@H]1O[C@H]1O[C@H](CO)[C@@H](O)[C@H](N)[C@H]1O,-,MIC,TN3605 (W1),-,>256 µg/mL
CCCC(NCc1ccccc1)C(N)=O.Cl,-,MIC,H37Rv,-,50 µg/mL
CCOC(=O)Nc1cc2[nH]c(-c3cc(OC)c(OC)cc3OC)nc2c(N(CCc2ccccc2)Cc2ccccc2)n1,-,EC50,H37Rv,-,<12.5 µg/mL
O=C1CCC(=O)N1Br,-,MIC,H37Rv,-,>100 µg/mL
CCOC(=O)Nc1cc2c(c(N)n1)N=C(c1ccccc1)CO2,resazurin,MIC bound,H37Rv,-,>6.25 µg/mL
CCOC(=O)Nc1cc(NCCc2ccc(S(=O)(=O)N(CC)CC)cc2)c2ncc(C)nc2n1,-,EC50,H37Rv,-,>12.5 µg/mL
O=C(/C=C/c1ccc(Cl)cc1)c1ccccc1O,-,EC50,-,-,<12.5 µg/mL
CC1CCCC(NCCNC2CCCCCCC2)C1C,-,MIC,-,-,25 µM
CCOC(=O)Nc1cc(NC(c2ccc(Cl)cc2)c2ccc(Cl)cc2)c2c(n1)NCN2,-,inhibition,H37Rv,12.5 µg/mL,55%
CCCCC(CC)CN1CN(CC(CC)CCCC)CC(C)(NCCN[C@@H](CO)[C@@H](O)c2ccc(SC)cc2)C1,-,MIC,-,-,25 µM
CC1CNC(c2ccc(NC(=O)Nc3cc(C(=O)Nc4ccc(C5=NC(C)CN5)cc4)ccc3C(=O)Nc3ccc(C4=NC(C)CN4)cc3)cc2)=N1,BACTEC,inhibition,H37Rv,6.25 µg/mL,96%
Cc1cc(O)ccc1NCc1ccccc1.Cl,-,MIC,H37Rv,-,>100 µg/mL
CCOC(=O)CCC1(C(=O)OCC)Oc2ccc(Cl)cc2C1=O,BACTEC,inhibition,H37Rv,12.5 µg/mL,11%
O=C1c2ccccc2OC(c2ccccc2)C1O,-,EC50,H37Rv,-,>12.5 µg/mL
CCOc1ccc2nc(N=NC(C(C)=O)C(C)=O)sc2c1,resazurin,inhibition,H37Rv,6.25 µg/mL,19%
CC(=O)SCC(=O)Nc1ccccc1O,-,MIC,H37Rv,-,>100 µg/mL
O=C1c2c(O)cc(O)cc2OC(c2ccc(O)cc2)C1c1c(O[C@@H]2O[C@H](CO)[C@@H](O)[C@H](O)[C@H]2O)cc(O)c2c(=O)cc(-c3ccc(O)cc3)oc12,-,inhibition,-,12.5 µg/mL,0%
CCOC(=O)N1CCN(P(=O)(Nc2ccc3nc(NC(=O)OC)[nH]c3c2)Oc2ccccc2)CC1,BACTEC,inhibition,-,0.5 µM,0%
CO[C@H]1/C=C/O[C@@]2(C)Oc3c(C)c(O)c4c(=O)c(c5oc6cc(N7CCN(CC(C)C)CC7)cc(=O)c6nc5c4c3=C2O)NC(=O)/C(C)=C\C=C\[C@H](C)[C@H](O)[C@@H](C)[C@@H](O)[C@@H](C)[C@H](OC(C)=O)[C@@H]1C,-,MIC,TN644,-,16 µg/mL
CN1C2=NCCN2C(=O)c2cc(Cl)ccc21,BACTEC,inhibition,H37Rv,12.5 µg/mL,0%
CCOC(=O)Nc1cc2oc(=O)c(-c3ccccc3)nc2c(N)n1,-,EC50,H37Rv,-,>12.5 µg/mL
O=C1C(=Nc2cccc(Cl)c2)CC(c2ccc(Cl)cc2)N1c1ccc(Cl)cc1,BACTEC,inhibition,H37Rv,6.25 µg/mL,8%
CC(=O)Nc1ccc(S(=O)(=O)c2ccc(N)cc2)cc1,-,MIC,H37Rv,-,25 µg/mL
NNC(=O)/C(NC(=O)c1ccccc1)=C(\N)c1cccc([N+](=O)[O-])c1,BACTEC,MIC bound,H37Rv,-,>12.5 µg/mL
CC[C@H]1OC(=O)[C@H](C)[C@@H](O[C@H]2C[C@@](C)(OC)[C@@H](O)[C@H](C)O2)[C@H](C)[C@@H](O[C@@H]2O[C@H](C)C[C@H](N(C)C)[C@H]2O)[C@](C)(OC)C[C@@H](C)C(=O)[C@H](C)[C@@H](O)[C@]1(C)O,-,MBC,ATCC 35830,-,>8 µg/mL
Nc1nc2ccccc2o1,-,MIC,H37Rv,-,>100 µg/mL
O=C(Nc1ncc([N+](=O)[O-])s1)c1cc(Cl)cc(Cl)c1,BACTEC,inhibition,H37Rv,12.5 µg/mL,99%
Cc1ccc(C)n1-c1ccc2nc(-c3ccccc3)c(-c3ccccc3)nc2c1,-,MIC,H37Rv,-,>100 µg/mL
c1ccc(CCCCNCCNCc2cccc3ccccc23)cc1,-,MIC,-,-,25 µM
CN1CCC(O)(/C=C\C(C)(C)O)CC1,resazurin,inhibition,H37Rv,6.25 µg/mL,2%
O=C1NC(=O)c2ccccc21,-,MIC,H37Rv,-,>100 µg/mL
CC(C)=CCC/C(C)=C/CNCCNC(C)c1cccc2ccccc12,-,MIC,-,-,25 µM
CC(Nc1ccnc(N)c1[N+](=O)[O-])/C(=N\O)c1ccc(O)cc1,-,EC50,H37Rv,-,>12.5 µg/mL
COc1cc(OC)c2c(c1)OC(c1ccc(OC)c(I)c1)CC2=O,-,inhibition,-,12.5 µg/mL,0%
COc1ccccc1CCNCCN[C@H]1C[C@H]2CC[C@]1(C)C2(C)C,-,MIC,-,-,50 µM
CC(C)c1ccc2c(c1)CC[C@H]1[C@](C)(CNCCNC3CCc4ccccc43)CCC[C@]21C,-,MIC,-,-,25 µM
C[C@H]1COc2c(N3CCN(C)CC3)c(F)cc3c(=O)c(C(=O)O)cn1c23,-,MIC,H37Rv,-,0.25 µg/mL
CC(CNC1CCCCCCC1)NCC12CC3CC(CC(C3)C1)C2,-,MIC,-,-,25 µM
Cc1c([N+](=O)[O-])oc2ccc3ccccc3c12,resazurin,inhibition,H37Rv,6.25 µg/mL,15%
CCCN(C(C)=O)c1ccccc1,-,MIC,H37Rv,-,>100 µg/mL
CC(CN1c2ccccc2Sc2ccccc21)N(C)CCO,BACTEC,inhibition,H37Rv,12.5 µg/mL,17%
O=C(C(=O)c1ccccc1)c1ccccc1,-,MIC,H37Rv,-,50 µg/mL
CC(C)c1ccc2c(c1)CC[C@H]1[C@](C)(CNCCN[C@H]3C[C@@H]3c3ccccc3)CCC[C@]21C,-,MIC,-,-,50 µM
COc1ccc(/C=C/C(=O)c2ccccc2F)cc1,-,EC50,H37Rv,-,<12.5 µg/mL
Cc1noc(-c2ccc([N+](=O)[O-])o2)n1,BACTEC,inhibition,H37Rv,12.5 µg/mL,27%
CC(C)N=c1cc2n(-c3ccc(Cl)cc3)c3ccccc3nc-2cc1Nc1ccc(Cl)cc1,broth dilution / resazurin,MIC,MDR20,-,1 µg/mL
CN(C)c1ccccc1O,-,MIC,H37Rv,-,>100 µg/mL
CC(C)OC(=O)N1CC(C)N(C(=O)OC(C)C)CC1C,BACTEC,MIC bound,H37Rv,-,>12.5 µg/mL
N#CCC(=O)c1cc2ccc(S(=O)(=O)Nc3ccc4[nH]c(=S)[nH]c4c3)cc2o1,-,MIC,H37Rv,-,>100 µg/mL
Clc1ccc(CCNCCNCc2ccccc2)c(Cl)c1,-,MIC,-,-,50 µM
CCCCCCCCCCCCOS(=O)(=O)OCCCCCCCCCCCC,-,MIC,H37Rv,-,100 µg/mL
CC(=O)N/N=C(\N)c1nc2c(n3nc(C)nc13)CCCC2,BACTEC,MIC bound,H37Rv,-,>12.5 µg/mL
c1ccc([C@H]2C[C@@H]2NCCNC2C3CC4CC(C3)CC2C4)cc1,-,MIC,-,-,25 µM
O=[N+]([O-])c1ccc(S(=O)(=O)c2ccc(Cl)cc2)cc1,-,MIC,H37Rv,-,>100 µg/mL
Cc1nc2c3c(ncn2n1)Oc1c(c(-c2ccccc2)nn1-c1ccccc1)C3c1ccc(Cl)cc1,resazurin,inhibition,H37Rv,6.25 µg/mL,1%
[O-][N+](=Nc1ccccc1)c1ccccc1,-,MIC,H37Rv,-,100 µg/mL
CCOC(=O)Nc1cc(NCC(=O)c2ccc(F)cc2)c([N+](=O)[O-])c(N)n1,-,EC50,H37Rv,-,>12.5 µg/mL

4 of the rows above, restated:

O=[N+]([O-])c1ccc(S(=O)(=O)c2ccc(Cl)cc2)cc1 ; read-out: MIC ; strain: H37Rv ; value: >100 µg/mL
CN(C)c1ccccc1O ; read-out: MIC ; strain: H37Rv ; value: >100 µg/mL
CC1CNC(c2ccc(NC(=O)Nc3cc(C(=O)Nc4ccc(C5=NC(C)CN5)cc4)ccc3C(=O)Nc3ccc(C4=NC(C)CN4)cc3)cc2)=N1 ; method: BACTEC ; read-out: inhibition ; strain: H37Rv ; tested at: 6.25 µg/mL ; value: 96%
C[C@H]1C[C@H](N)CN1c1cc2c(cc1F)c(=O)c(C(=O)O)cn2-c1ccc(F)cc1F ; read-out: MBC90 ; strain: MDR ; value: >8 µg/mL